One molecule from article PMC9450471 (Computational Biology and Chemistry, 2022) can be followed below.

Molecules are shown by their SMILES. Several values for one entry are separate records, joined by “and”; a condition that tells them apart may be missing. Equal entries are not always repeated.

This test addresses SARS-CoV-2 RdRp (nsp12/7/8 complex) in the presence of ExoN (nsp14/10 complex, wild type) (Severe acute respiratory syndrome coronavirus 2, UniProt P0DTD1, P4715L). As to the kind of experiment: cell-based. The settings on record: Inhibition of SARS-CoV-2 RdRp in vitro (EC50) Nsp12 + Nsp14. On the set-up: species or system SARS-CoV-2 Omicron variant B.1.1.529/BA.5 sublineage.

What is called EC50 is the midpoint of the concentration-response curve. For `O=c1[nH]cnc2c([C@@H]3N[C@H](CO)[C@@H](O)[C@H]3O)c[nH]c12` [Forodesine], the EC50 was ~317 nM and 317 nM.
